A mixed list of measured activities; the numbers were collected in NIAID ChemDB.

All rows: growth or infection tests; organism: Candida albicans; endpoint: MIC

a–b is a range or a potency band. Blank or dashed fields: not listed here. Rows are shuffled and stem from different studies.

SMILES | strain | method | value
C=C(C)CN1CC(OCC23C[C@@H]4[C@H](C)CC[C@H]4C4(C=O)CC2C=C(C(C)C)[C@@]34C(O)O)O[C@H](C)[C@@H](O)C1 | 2035B | - | 0.03 µg/mL
C[C@@H]1O[C@@H](O[C@H]2[C@H](O[C@H]3CC[C@@]4(C)[C@@H](CC[C@]5(C)[C@@H]4CC=C4[C@@H]6CC(C)(C)CC[C@]6(C(=O)O)CC[C@]45C)[C@]3(C)CO)OC[C@H](O)[C@@H]2O)[C@H](O)[C@H](O)[C@H]1O | KCTC 1940 | - | 25 µg/mL
Cc1ccc(Oc2c(C3C(C#N)=C(N)OC4=C3C(=O)CCC4)c(C)nn2-c2ccccc2)cc1 | MTCC 227 | - | 500 µg/mL
C[C@@H]1[C@H](O)[C@@H](C)/C=C/C=C/CC/C=C/C=C/C=C/C=C/C(O[C@H]2O[C@H](C)[C@@H](O)[C@H](N)[C@@H]2O)CC2O[C@](O)(CC(O)C(O)CCC(O)CC(O)CC(O)CC(=O)O[C@H]1C)CC(O)C2C(=O)O | ATCC 2091 | broth dilution | 6.25 µg/mL
C=CCc1ccc(O)c(-c2cc(CC=C)ccc2O)c1 | KCTC 1940 | - | 25 µg/mL
CN[C@@H]1[C@H](O)[C@@H](O)[C@H](O[C@H]2c3cc(C)c(C(=O)N[C@H](C)C(=O)O)c(O)c3-c3c(cc4c(c3O)C(=O)c3cc(OC)cc(O)c3C4=O)[C@@H]2O)O[C@@H]1C | IAM4888 | - | 3.1 µg/mL
C[C@@H]1[C@H](O)[C@@H](C)/C=C/C=C/CC/C=C/C=C/C=C/C=C/C(O[C@H]2O[C@H](C)[C@@H](O)[C@H](N)[C@@H]2O)CC2O[C@](O)(CC(O)C(O)CCC(O)CC(O)CC(O)CC(=O)O[C@H]1C)CC(O)C2C(=O)O | ATCC 24433 | agar | 1.56 µg/mL
CCC(C)n1ncn(-c2ccc(N3CCN(c4ccc(OC[C@H]5CO[C@](Cn6cncn6)(c6ccc(Cl)cc6Cl)O5)cc4)CC3)cc2)c1=O | Isogenic isolate 3 MDR1 (25X) | - | 0.015 µg/mL
COc1ccc(Oc2c(C3C(C#N)=C(N)OC4=C3C(=O)CC(C)(C)C4)c(C)nn2-c2ccc(C)cc2)cc1 | MTCC 227 | - | 500 µg/mL
COc1cc(Cc2cnc(N)nc2N)cc(OC)c1OCCCNc1ccc(S(=O)(=O)c2ccc(N)cc2)cc1 | YEM13 (BENUP) | - | >64 µg/mL
CCC(C)CC(C)CCCCCCCCC(=O)N[C@H]1C[C@@H](O)[C@@H](OCCN)NC(=O)[C@@H]2C[C@@H](O)CN2C(=O)[C@H]([C@H](O)CCN)NC(=O)[C@H]([C@H](O)[C@@H](O)c2ccc(O)cc2)NC(=O)[C@@H]2C[C@@H](O)CN2C(=O)[C@H]([C@@H](C)O)NC1=O | MY2301 | - | 0.25 µg/mL
COc1ccc(Oc2c(C3C(C#N)=C(N)OC4=C3C(=O)CCC4)c(C)nn2-c2ccccc2)cc1 | MTCC 227 | - | 250 µg/mL
Cc1c(N)nc([C@H](CC(N)=O)NC[C@H](N)C(N)=O)nc1C(=O)N[C@H](C(=O)N[C@H](C)[C@@H](O)[C@H](C)C(=O)N[C@H](C(=O)NCCc1nc(-c2nc(C(=O)NCCC[S+](C)C)cs2)cs1)[C@@H](C)O)C(O[C@@H]1O[C@@H](CO)[C@@H](O)[C@H](O)[C@@H]1O[C@H]1O[C@H](CO)[C@@H](O)[C@H](OC(N)=O)[C@@H]1O)c1cnc[nH]1 | Isolate 94-77 | - | 0.39 µg/mL
c1ccc(C[n+]2c3ccccc3cc3[nH]c4ccccc4c32)cc1 | B311 | - | >250 µg/mL
COc1cc(O)c2c(c1)C(=O)c1c(cc3c(c1O)-c1c(cc(C)c(C(=O)N[C@H](C)C(=O)O)c1O)[C@H](O[C@@H]1O[C@H](C)[C@H](N)[C@H](O[C@@H]4OC[C@@H](O)[C@H](O)[C@@H]4O)[C@H]1O)[C@H]3O)C2=O | IAM4888 | - | 3.1 µg/mL
C=C(CC[C@@H](C)[C@H]1C[C@@H](O)[C@@]2(C(=O)O)C3=C(CC[C@]12C)[C@@]1(C)CC[C@H](O[C@@H]2O[C@@H](CO)[C@H](OC)[C@@H](O)[C@@H]2O)C(=C)[C@@H]1CC3)C(C)C | MY2301 | - | >64 µg/mL
CC(C)=CCOc1cc(NC(=S)c2ccoc2C)ccc1Cl | - | - | >30 µM
C=C(CCC1(OC)O[C@H]2C[C@H]3[C@@H]4CC=C5C[C@@H](O)[C@H](O)[C@@H](O[C@@H]6OC[C@@H](O)[C@H](O)[C@H]6O)[C@]5(C)[C@H]4CC[C@]3(C)[C@H]2[C@@H]1C)CO[C@@H]1O[C@H](CO)[C@@H](O)[C@H](O)[C@H]1O | - | - | ≥20 µg/mL
COc1c(CC=C(C)C)c(O)cc2occ(-c3ccc4c(c3)OCO4)c(=O)c12 | ATCC 2091 | broth dilution | 50 µg/mL
CC[C@@]1(OC(=O)CN)C(=O)OCc2c1cc1n(c2=O)Cc2cc3cc4c(cc3nc2-1)OCO4 | A39 | - | >1.56 µg/mL
CCCCCOc1cccc2cccnc12 | - | - | 50 µg/mL
Cc1nn(-c2ccccc2)c(Oc2ccccc2)c1C1C(C#N)=C(N)OC2=C1C(=O)CCC2 | MTCC 227 | - | >1000 µg/mL
CCCCCCCCCCCOCC(=O)O | - | - | 500 µM
C[C@@H]1CC[C@@]2(OC1)O[C@H]1[C@@H](O)[C@H]3[C@@H]4CC[C@H]5C[C@@H](O[C@@H]6O[C@H](CO)[C@H](O[C@@H]7O[C@H](CO)[C@@H](O)[C@H](O[C@@H]8OC[C@@H](O)[C@H](O)[C@H]8O)[C@H]7O[C@@H]7O[C@H](CO)[C@H](O)[C@H](O[C@@H]8O[C@H](CO)[C@@H](O)[C@H](O)[C@H]8O)[C@H]7O)[C@H](O)[C@H]6O)[C@H](O)C[C@]5(C)[C@H]4CC[C@]3(C)[C@H]1[C@@H]2C | MY1055 | - | 2.5 µg/mL
O=C(/C=C/c1ccccc1)Oc1cccc2cccnc12 | - | - | >100 µg/mL
C[C@@H]1CC[C@@]2(OC1)O[C@H]1C[C@H]3[C@@H]4CC=C5C[C@@H](O)[C@H](O)[C@@H](O[C@@H]6OC[C@@H](O)[C@H](O)[C@H]6O[C@@H]6O[C@@H](C)[C@H](O)[C@@H](O)[C@H]6O)[C@]5(C)[C@H]4CC[C@]3(C)[C@H]1[C@@H]2C | - | - | ≥20 µg/mL
C[C@@H]1OC(OC[C@H]2OC(Oc3c(-c4ccc(O)c(O)c4)oc4cc(O)cc(O)c4c3=O)[C@H](O)[C@@H](O)[C@@H]2O)[C@H](O)[C@H](O)[C@H]1O | ATCC 10231 | - | 80 µg/mL
C=C1CC[C@@]2(OC1)O[C@H]1C[C@H]3[C@@H]4CC=C5C[C@@H](O)[C@H](O)[C@@H](O[C@@H]6O[C@H](CO)[C@H](O)[C@H](O)[C@H]6O)[C@]5(C)[C@H]4CC[C@]3(C)[C@H]1[C@@H]2C | - | - | ≥20 µg/mL
NC(=NCCCCCCN=C(N)/N=C(\N)Nc1ccc(Cl)cc1)/N=C(\N)Nc1ccc(Cl)cc1 | ATCC 10231 | broth dilution | 200 µg/mL
COc1cc(O)c2c(c1)C(=O)c1c(cc3c(c1O)-c1c(cc(C)c(C(=O)NC(CO)C(=O)O)c1O)[C@H](OC1OC(C)C(O)C(OC4OCC(O)C(O)C4O)C1O)C3O)C2=O | ATCC 32354 | - | 3.1 µg/mL
O=C(Oc1cccc2cccnc12)c1ccccc1 | - | - | >100 µg/mL
C[C@@H]1CC[C@@]2(OC1)O[C@H]1C[C@H]3[C@@H]4CC=C5C[C@@H](O[C@@H]6O[C@H](CO)[C@H](O[C@@H]7O[C@@H](C)[C@H](O)[C@@H](O)[C@H]7O)[C@@H](O)[C@H]6O[C@@H]6O[C@@H](C)[C@H](O)[C@@H](O)[C@H]6O)CC[C@]5(C)[C@H]4CC[C@]3(C)[C@H]1[C@@H]2C | - | - | 2.5 µg/mL
CC1CCCN(CC(C)Cc2ccc(C(C)(C)C)cc2)C1 | 29-3-101 | - | 56.7 µM
C[C@@H]1O[C@@H](OC2[C@H](O[C@H]3CC[C@@]4(C)[C@@H](CC[C@]5(C)[C@@H]4CC=C4[C@@H]6CC(C)(C)CC[C@@]6(C(=O)O)CC[C@]45C)[C@]3(C)CO)OC[C@H](O)[C@@H]2O)[C@H](O)[C@H](O[C@@H]2O[C@H](CO)[C@@H](O)[C@H](O)[C@H]2O)[C@H]1O | KCTC 1940 | - | >200 µg/mL
C[C@@H]1[C@H](O)[C@@H](C)/C=C/C=C/CC/C=C/C=C/C=C/C=C/C(O[C@H]2O[C@H](C)[C@@H](O)[C@H](N)[C@@H]2O)CC2O[C@](O)(CC(O)C(O)CCC(O)CC(O)CC(O)CC(=O)O[C@H]1C)CC(O)C2C(=O)O | MTCC 183 | - | 150 µg/mL
CC1=C(Cl)C(O)=CC(=O)C12Oc1cc(O)c(Cl)c(C)c1C2=O | MTCC 227 | broth dilution | 500 µg/mL
c1ccc2c(c1)cc1[nH]c3ccccc3c1[n+]2CC1CCCCC1 | B311 | - | 62.5 µg/mL
C[C@@H]1[C@H](O)[C@@H](C)/C=C/C=C/CC/C=C/C=C/C=C/C=C/[C@H](O[C@@H]2O[C@H](C)[C@@H](O)[C@H](N)[C@@H]2O)C[C@@H]2O[C@](O)(C[C@@H](O)[C@H](O)CC[C@@H](O)C[C@@H](O)C[C@@H](O)CC(=O)O[C@H]1C)C[C@H](O)[C@H]2C(=O)O | MTCC 227 | - | 100 µg/mL
C[C@@H]1[C@H](O)[C@@H](C)/C=C/C=C/CC/C=C/C=C/C=C/C=C/C(O[C@H]2O[C@H](C)[C@@H](O)[C@H](N)[C@@H]2O)CC2O[C@](O)(CC(O)C(O)CCC(O)CC(O)CC(O)CC(=O)O[C@H]1C)CC(O)C2C(=O)O | ATCC 10231 | broth dilution | 10 µg/mL
C[C@@H]1C[C@@H]([C@H](O)CC2CC(=O)NC(=O)C2)C(=O)[C@@H](C)C1 | - | - | 12.5 µg/mL
C=C(Cl)/C=C/[C@H](O)CC(=C)C[C@H]1OC2[C@@H](O)[C@]3(O)C[C@@H](O)[C@H](C)[C@H](CCC/C=C\[C@@H]4C[C@@H](O)C[C@]5(C[C@H](OC)CC(CC(=O)[C@@H](C)[C@H](OC(C)=O)[C@@H](C)C(=C)C[C@@H]6C[C@@](C)(O)C[C@]7(C[C@H](OC(C)=O)CC(CC(=O)O[C@@H]([C@@H]1O)[C@H]2C)O7)O6)O5)O4)O3 | ATCC 32354 | - | 3.12 µg/mL
C[C@H]1[C@H](O)[C@@H](C)/C=C/C=C/C=C/C=C/C=C/C=C/C=C/[C@H](O[C@@H]2O[C@H](C)[C@@H](O)[C@H](N)[C@@H]2O)C[C@@H]2O[C@](O)(C[C@@H](O)C[C@@H](O)CC[C@H](O)[C@@H](O)C[C@@H](O)CC(=O)O[C@H]1C)C[C@H](O)[C@H]2C(=O)O | ATCC 10231 | broth dilution | 0.5–1 µg/mL
Cc1ccc(Oc2c(C3C(C#N)=C(N)OC4=C3C(=O)CC(C)(C)C4)c(C)nn2-c2ccccc2)cc1 | MTCC 227 | - | 1000 µg/mL
Cc1ncc([N+](=O)[O-])n1CCO | 18 isolates | - | >200 µg/mL
COc1cccc2ccc[n+](C)c12.[I-] | - | - | >100 µg/mL
CC(/C=C/C(O)C(C)/C=C/C(=O)O)=C\CC1OC2(CCC(C)C(/C=C/C(C)=C/C(=O)O)O2)CCC1C | ATCC 10231 | - | 15 µg/mL
CC[C@@]1(OC(=O)CN)C(=O)OCc2c1cc1n(c2=O)Cc2cc3c(N)c4c(cc3nc2-1)OCO4 | A39 | - | >100 µg/mL
CCC(C)CC(C)CCCCCCCCC(=O)N[C@H]1C[C@@H](O)[C@H](NCCN)NC(=O)[C@@H]2[C@@H](O)CCN2C(=O)[C@H]([C@H](O)CCN)NC(=O)[C@H]([C@H](O)[C@@H](O)c2ccc(O)cc2)NC(=O)[C@@H]2C[C@@H](O)CN2C(=O)[C@H]([C@@H](C)O)NC1=O | MY1055 | - | 0.25 µg/mL
C[C@@H]1[C@H](O)[C@@H](C)/C=C/C=C/CC/C=C/C=C/C=C/C=C/[C@H](O[C@@H]2O[C@H](C)[C@@H](O)[C@H](N)[C@@H]2O)C[C@@H]2O[C@](O)(C[C@@H](O)[C@H](O)CC[C@@H](O)C[C@@H](O)C[C@@H](O)CC(=O)O[C@H]1C)C[C@H](O)[C@H]2C(=O)O | ATCC 10231 | - | 0.375 µg/mL
Cc1ccc(-n2nc(C)c(C3C(C#N)=C(N)OC4=C3C(=O)CC(C)(C)C4)c2Oc2ccccc2)cc1 | MTCC 227 | - | 500 µg/mL
N#CC[n+]1c2ccccc2cc2[nH]c3ccccc3c21 | B311 | - | 250 µg/mL
CN(C/C=C/C#CC(C)(C)C)Cc1cccc2ccccc12 | YAG171 (genotype RBP1/RBP1) | - | >12.5 µg/mL
CC(=O)N1CCN(c2ccc(OC[C@H]3CO[C@](Cn4ccnc4)(c4ccc(Cl)cc4Cl)O3)cc2)CC1 | Clinical isolates | - | 32 µg/mL

Again, the opening 3 rows:

SMILES,strain,method,value
C=C(C)CN1CC(OCC23C[C@@H]4[C@H](C)CC[C@H]4C4(C=O)CC2C=C(C(C)C)[C@@]34C(O)O)O[C@H](C)[C@@H](O)C1,2035B,-,0.03 µg/mL
C[C@@H]1O[C@@H](O[C@H]2[C@H](O[C@H]3CC[C@@]4(C)[C@@H](CC[C@]5(C)[C@@H]4CC=C4[C@@H]6CC(C)(C)CC[C@]6(C(=O)O)CC[C@]45C)[C@]3(C)CO)OC[C@H](O)[C@@H]2O)[C@H](O)[C@H](O)[C@H]1O,KCTC 1940,-,25 µg/mL
Cc1ccc(Oc2c(C3C(C#N)=C(N)OC4=C3C(=O)CCC4)c(C)nn2-c2ccccc2)cc1,MTCC 227,-,500 µg/mL